Primary screen of a compound library

Source: ChEMBL document CHEMBL3988442, “University of Dundee, Small-Polar-MMV Screening Library” (2021).

Mtb glucose medium: 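Whole-cell growth test on Mycobacterium tuberculosis, read after 3 days in glucose-containing 7H9 medium; the read-out is not stated. Compounds at 500 µM. Higher reads as more growth inhibition (inferred: compounds with an IC50 in retests scored well above the rest). Of about 18,000 compounds tested this way, about 1,400 (7.9%) reached 50% or more in at least one test.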
Mtb cholesterol medium: 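Whole-cell growth test on Mycobacterium tuberculosis, read after 4 days in a medium based on cholesterol and the lipid DPPC; the read-out is not stated. Tested at 500 µM. The record gives no direction; compounds that gave an IC50 in retests scored well above the rest, so higher reads as more growth inhibition. About 18,000 compounds were tested under these conditions; 5% (about 900) showed 50% or more at least once.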

Each number is a percent effect as filed. The controls that fix the scale are not given in the record; negative values are as filed. The entries come from a sample that favours strong results.

CSCC(=O)NCCc1ccc(S(C)(=O)=O)cc1 read Mtb glucose medium: -12.25%.
COC(=O)CSc1ccccc1C(=O)OC read Mtb cholesterol medium: 27.52%.
NCCC1CCCN(C(=O)c2c(O)cccc2O)C1 (stereo not given) read Mtb glucose medium: 1.443%; Mtb cholesterol medium: 5.649%.
COc1c(C)cnc(CNC(=O)N(C)C(C)C)c1C read Mtb glucose medium: 4.585%.
Fc1ccc2nc(N3CCCNCC3)oc2c1F read Mtb glucose medium: 77.16%; Mtb cholesterol medium: 68.98%.
NS(=O)(=O)c1ccc2c(c1)N(Cc1ccon1)CC2 read Mtb glucose medium: -2.872%.
Cc1c(C(=O)Nc2ccc3c(c2)OCCO3)cnn1C read Mtb cholesterol medium: 57.49%.
CC1CCCN(S(=O)(=O)N(C)Cc2ccco2)C1 (stereo not given) read Mtb glucose medium: 54.19%.
FC(F)(F)CCOC1CCNCC1 read Mtb cholesterol medium: 28.56%.
Cc1ncsc1C(=O)NCC(C)(C)CN(C)C read Mtb glucose medium: 3.412%.
CSc1ccc(OCCn2cnnc2[S+](C)[O-])cc1 (stereo not given) read Mtb glucose medium: 26.35%.
COc1ccc(CNC(=O)C(C)(C)C)c(OC)c1OC read Mtb cholesterol medium: 11.44%.
CC(C)CS(=O)(=O)CC(=O)NC1CCc2nccn2C1 (stereo not given) read Mtb glucose medium: -10.27%.
CNc1ncc(Br)s1 read Mtb glucose medium: -17.28%.
COCCC1CN(C(=O)c2ccccc2C#N)CCO1 (stereo not given) read Mtb glucose medium: 18.28%; Mtb cholesterol medium: 7.402%.
CCCC(C)N1CCN(Cc2nc(COC)no2)CC1 (stereo not given) read Mtb cholesterol medium: 18.34%.
Cc1ccccc1-c1nnn(CC(O)CC(F)(F)F)n1 (stereo not given) read Mtb glucose medium: 78.77%; Mtb cholesterol medium: 6.962%.
COCCC(=O)NC(c1ccc(F)cc1)C(F)(F)F (stereo not given) read Mtb cholesterol medium: 20.09%.
CCOc1ccc(S(=O)(=O)N2CCNC(=O)C2)cc1C read Mtb glucose medium: 3.348%.
COc1ncccc1-c1cccc(C#N)n1 read Mtb glucose medium: 2.169%; Mtb cholesterol medium: -12.06%.
CC1(CO)CCCCN1 (stereo not given) read Mtb glucose medium: -16.06%.
CC(N)c1cc(F)ccc1-n1cccn1 (stereo not given) read Mtb glucose medium: 41.99%.
Cn1cncc1CCNC(=O)C1CCCCO1 (stereo not given) read Mtb glucose medium: 2.824%.
CCN(CCS(C)(=O)=O)CC(O)c1ccc(C)cc1 (stereo not given) read Mtb glucose medium: 23.94%; Mtb cholesterol medium: 23.74%.
Cc1cc(NC(=O)CS(=O)(=O)c2ccccc2)no1 read Mtb glucose medium: 13.86%; Mtb cholesterol medium: 7.542%.
Cc1ccnc(NC(=O)C2SCCS2)n1 read Mtb glucose medium: -0.535%.
COC1CCN(C(=O)CCc2ccc(F)cc2F)C1 (stereo not given) read Mtb glucose medium: 74.93%; Mtb cholesterol medium: 63.68%.
Brc1cncc(NCc2ncc[nH]2)c1 read Mtb cholesterol medium: 57.06%.
CC[C@H](N)C(=O)N(CC)C(C)c1ccc(F)cc1 (stereo not given in full) read Mtb glucose medium: 37.74%.
CN(C)c1ccc(CNC(=O)C2CCCO2)cc1 (stereo not given) read Mtb glucose medium: 50.31%; Mtb cholesterol medium: 55.07%.
CC(CNC(=O)c1cnccn1)N1CCCC1 (stereo not given) read Mtb glucose medium: 11.14%.
Cn1ccnc1C1CCN(C(=O)NC(C)(C)C)CC1 read Mtb glucose medium: -4.989%.
C1CC(CNC2CC2)CO1 (stereo not given) read Mtb glucose medium: -5.82%.
c1csc(C2CNCCO2)c1 (stereo not given) read Mtb cholesterol medium: 3.109%.
CC[C@H](N)C(=O)N1CCCc2cc(OC)ccc2C1 read Mtb cholesterol medium: 11%.
CCCNC(=O)Nc1cccc(C(=O)N(C)C)c1 read Mtb glucose medium: 3.859%.
NCCn1ccccc1=O read Mtb glucose medium: 13.08%.
CC1=NOC(C(=O)NCCc2nc3c(s2)CCCC3)C1 (stereo not given) read Mtb glucose medium: 54.66%.
O=S(=O)(CCO)c1ccc(Br)cc1 read Mtb cholesterol medium: 17.23%.
CC(O)CN1CCC(CN(C)Cc2nccn2C)CC1 (stereo not given) read Mtb cholesterol medium: -7.496%.
OC(Cn1nnnc1-c1ccccn1)CC(F)(F)F (stereo not given) read Mtb glucose medium: 10.93%; Mtb cholesterol medium: -4.149%.
CCc1ccc(CCNC(=O)CC2CNCCO2)cc1 (stereo not given) read Mtb glucose medium: 37.06%.
O=C(NCC1CCCO1)N1CCC2(C1)OCCO2 (stereo not given) read Mtb glucose medium: 1.617%.
COc1cc(CNCCO)c(Cl)cc1OCC(N)=O read Mtb glucose medium: -2.537%.
Nc1ccc(C(=O)N2C[C@H](O)[C@@H](N3CCCC3)C2)cn1 read Mtb glucose medium: -3.855%.
COc1cccc(Cl)c1CN1CCCNCC1 read Mtb glucose medium: 60.44%.
O=C(c1ccc(Cl)o1)N1CCN(Cc2ccco2)CC1 read Mtb glucose medium: 89.61%; Mtb cholesterol medium: 90.44%.
CN(CCS(=O)(=O)c1ccc(Cl)cc1)CC(=O)N(C)C read Mtb glucose medium: 99.17%; Mtb cholesterol medium: 106.7%.

The last 4 entries again:

{"smiles": "Nc1ccc(C(=O)N2C[C@H](O)[C@@H](N3CCCC3)C2)cn1", "Mtb glucose medium": -3.855}
{"smiles": "COc1cccc(Cl)c1CN1CCCNCC1", "Mtb glucose medium": 60.44}
{"smiles": "O=C(c1ccc(Cl)o1)N1CCN(Cc2ccco2)CC1", "Mtb glucose medium": 89.61, "Mtb cholesterol medium": 90.44}
{"smiles": "CN(CCS(=O)(=O)c1ccc(Cl)cc1)CC(=O)N(C)C", "Mtb glucose medium": 99.17, "Mtb cholesterol medium": 106.7}